# Laboratory results taken from US20120142623A1, “Compositions And Methods For Predicting Inhibitors Of Protein Targets” (priority 2006, published 2012).
# pEC50: −log10 of the molar value. Where two headings read alike, the source gives them in different places.
# Tests used:
# [1] = system: chloroquine-sensitive strain 3D7 of P. falciparum; test: P. falciparum growth inhibition in culture, strain 3D7; type: cell-based, Plasmodium falciparum
# [2] = system: chloroquine-resistant strain K1 of P. falciparum; test: P. falciparum growth inhibition in culture, strain K1; type: cell-based, Plasmodium falciparum
substance,measurement,setting,value
Nitrotetrazolium,experimentally determined to work,"[1]; Table 5, P. falciparum ED50 in 3D7 and K1",Y (Y—yes (<=1uM ED50))
same,EC50,"[1]; read-out: ED50 (μM) in 3D7, Table 5",0.5 µM
same,pEC50,"[1]; read-out: ED50 in 3D7, Table 3 section A, mean of at least two measurements",6.30
same,result of the 16 tested inhibitors in words (binding),[1]; summary of Table 5,very strong binding
same,EC50,"[2]; read-out: ED50 (μM) in K1, Table 5",< 1 µM
same,pEC50,"[2]; read-out: ED50 in K1, Table 3 section A, mean of at least two measurements",> 6.00
